pKd: −log10 of the molar value.
Target: SAT C-terminal C10 peptide C-terminal 10 residues (Mycobacterium tuberculosis) (UniProt P95231)

For “Cysteine synthase (MtCS) (from UniProt P9WP55)”, the pKd was 6.00.
